Potato spindle tuber viroid, stem 26: variant abundance in plants

From the data files of Wu et al. 2024, doi:10.1371/journal.ppat.1012142.

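A pool of all variants was put on leaves of three Nicotiana benthamiana plants. Samples came from the inoculated region at 5 days, the leaf margin at 10 and upper systemic leaves at 12.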

The pool varies stem 26 of the PSTVd intermediate strain in the pattern AGGGUNNCNN; wild type is AGGGUACCCU (upper and lower strand joined, each 5' to 3', the first 5 letters being the upper strand).

Numbers give reads per thousand; 0 = not seen among the reads, higher = more abundant.
Each site shows the three plants.
"Pool" is the share in the plasmid pool used as inoculum, on the same scale.
The inoculated region was read from the minus strand, the other sites from the plus strand.
Wild type was 44.9 per thousand in the pool and the most common sequence in every sample (inoculated region 297, 323, 447; leaf margin 793, 829, 846; systemic leaves 974, 853, 877).
With 23,251-70,159 reads a sample, very low values are single reads.
The authors trace changes outside the varied positions to PCR and sequencing errors or to mutation in the plant; presence does not show that a variant is infectious alone.

sequence	pool	inoculated region	leaf margin	systemic leaves
ACGGUACCCA	0.0329	0.0236 0.0525 0.0860	0 0 0.0298	0 0 0
AGGGAACCCG	0.0329	0.0236 0 0	0 0 0.0298	0 0 0.0165
AGGGAACCCU	0.0329	0.354 0.578 0.731	0.223 0.732 0.893	0.598 0.627 0.744
AGGGACUCAC	0.0329	0 0.0263 0	0 0 0	0 0 0
AGGGCCACAU	0.0329	0 0 0	0 0 0	0 0 0
AGGGGACCCU	0.0329	0.0473 0 0.129	0.178 0.261 1.13	0.112 0.242 0.198
AGGGUAACAA	2.91	1.11 0.761 1.03	0.0223 0 0	0 0.0143 0
AGGGUAACAC	3.06	0.780 0.315 0.430	0 0 0	0 0 0.0165
AGGGUAACAG	3.44	1.23 1.08 0.946	0 0 0.0298	0 0 0.0165
AGGGUAACAU	4.10	1.44 1.50 1.16	0.0445 0.0523 0.119	0.0374 0.0428 0.0826
AGGGUAACCA	3.90	1.82 1.73 2.54	0 0.105 0.208	0.0561 0.114 0.0992
AGGGUAACCC	0.0493	0.165 0.158 0.430	0 0.0261 0	0 0.0143 0
AGGGUAACCG	2.86	0.591 0.630 0.516	0.0223 0 0	0.0374 0 0.0165
AGGGUAACCU	4.57	2.62 2.99 4.00	1.20 1.33 2.77	0.187 0.0998 1.37
AGGGUAACGA	3.37	1.44 1.52 1.20	0 0 0	0 0 0
AGGGUAACGC	2.86	0.921 0.709 0.731	0 0 0	0 0 0
AGGGUAACGG	2.85	0.898 0.735 0.731	0 0.0261 0	0 0 0.0165
AGGGUAACGU	2.65	1.16 0.814 1.08	0.0223 0 0.0298	0 0.0285 0.0165
AGGGUAACUA	4.26	2.62 3.26 2.49	0.846 0.0261 0	0 0.0143 0
AGGGUAACUC	4.61	3.28 3.86 2.45	1.18 0 0.863	0 0 0.876
AGGGUAACUG	2.88	0.992 0.656 0.559	0.0223 0 0	0 0 0
AGGGUAACUU	5.38	2.93 3.68 2.37	1.91 2.33 0.744	0.131 1.10 0.843
AGGGUACACG	0.0329	0 0.0788 0	0 0 0.0298	0 0 0
AGGGUACACU	1.25	1.96 1.94 2.67	2.74 3.29 3.99	0.187 0.157 2.20
AGGGUACCAA	2.50	0.874 0.945 1.03	0.0223 0.0261 0.149	0.0374 0.0570 0.0661
AGGGUACCAC	3.64	1.35 1.23 1.16	0 0.0261 0	0 0 0
AGGGUACCAG	2.78	0.827 0.683 0.946	0.0223 0 0.0595	0 0 0
AGGGUACCAU	3.67	2.55 1.97 3.57	2.14 2.46 3.06	0.131 0.0713 1.75
AGGGUACCCA	7.90	5.39 6.01 7.10	1.76 3.21 2.77	0.187 0.271 0.149
AGGGUACCCC	4.38	45.1 33.1 24.4	15.2 44.9 5.42	7.51 29.5 11.6
AGGGUACCCG	6.02	3.05 4.20 3.18	0.156 0.314 1.22	0.149 0.271 0.314
AGGGUACCCU	44.9	297 323 447	793 829 846	974 853 877
AGGGUACCGA	2.75	1.06 0.683 0.559	0 0 0	0.0187 0.0143 0
AGGGUACCGC	3.50	2.36 1.84 1.68	0 0.0261 0	0.187 0 0
AGGGUACCGG	2.86	1.11 0.656 0.860	0 0 0.0298	0 0.0143 0
AGGGUACCGU	2.96	1.04 0.998 0.817	0 0.131 0.0893	0.0747 0.0285 0.0496
AGGGUACCUA	3.91	1.25 1.55 0.903	0.0223 0 0.0298	0 0 0
AGGGUACCUC	2.50	2.27 2.34 1.98	1.14 0 1.16	0 0 0
AGGGUACCUG	2.94	1.13 0.656 0.645	0 0 0	0 0 0
AGGGUACCUU	2.96	40.2 26.0 19.5	20.5 21.1 14.3	0.673 10.1 39.7
AGGGUACGCG	0.0329	0 0 0	0 0 0	0 0 0
AGGGUACUCU	0.0658	0.0709 0.0525 0.0430	0.223 0.0523 0.119	0.224 0.157 0.0826
AGGGUAGCAA	2.88	0.992 0.788 0.516	0 0 0	0 0.0143 0
AGGGUAGCAC	2.83	0.780 0.788 0.473	0.0223 0 0.0298	0 0 0
AGGGUAGCAG	4.00	1.98 2.18 1.63	0 0.0261 0.0595	0 0 0.0331
AGGGUAGCAU	3.62	1.70 1.23 1.46	0 0 0.0298	0 0 0
AGGGUAGCCA	2.94	0.851 0.683 0.860	0 0 0.0298	0 0.0143 0
AGGGUAGCCC	5.30	3.71 3.44 1.76	0.779 0.627 0.0298	0.149 0 0.0165
AGGGUAGCCG	2.89	0.803 0.971 0.731	0 0 0	0.0187 0 0
AGGGUAGCCU	4.24	2.41 2.44 1.76	0.0223 0.0523 0.0893	0.467 0.0285 0.0661
AGGGUAGCGA	3.60	1.70 1.60 0.989	0 0.0261 0	0.0187 0.0143 0
AGGGUAGCGC	3.70	1.80 1.31 1.03	0 0 0	0 0 0
AGGGUAGCGG	5.97	4.35 4.54 2.62	0 0.0261 0.0298	0.0187 0 0.0331
AGGGUAGCGU	4.67	2.53 2.34 1.55	0.0223 0.0261 0.0298	0 0 0
AGGGUAGCUA	2.55	0.803 0.919 0.473	0 0 0	0 0 0
AGGGUAGCUC	2.53	2.27 2.13 1.59	1.14 0 1.07	0 0 0
AGGGUAGCUG	4.03	2.55 2.81 1.42	0 0 0	0 0 0
AGGGUAGCUU	2.99	1.02 0.683 0.860	0 0 0	0 0 0
AGGGUAGUCA	0.0329	0 0 0	0 0 0	0 0 0
AGGGUAUACU	0.0329	0 0 0	0 0 0	0 0 0
AGGGUAUCAA	2.86	0.827 0.709 0.731	0 0 0	0 0 0

The first 7 entries again:

With ACGGUACCCA (pool 0.0329) the assay gave inoculated region 0.0236 0.0525 0.0860; leaf margin 0 0 0.0298; systemic leaves 0 0 0.
With AGGGAACCCG (pool 0.0329) the assay gave inoculated region 0.0236 0 0; leaf margin 0 0 0.0298; systemic leaves 0 0 0.0165.
With AGGGAACCCU (pool 0.0329) the assay gave inoculated region 0.354 0.578 0.731; leaf margin 0.223 0.732 0.893; systemic leaves 0.598 0.627 0.744.
With AGGGACUCAC (pool 0.0329) the assay gave inoculated region 0 0.0263 0; leaf margin 0 0 0; systemic leaves 0 0 0.
With AGGGCCACAU (pool 0.0329) the assay gave inoculated region 0 0 0; leaf margin 0 0 0; systemic leaves 0 0 0.
With AGGGGACCCU (pool 0.0329) the assay gave inoculated region 0.0473 0 0.129; leaf margin 0.178 0.261 1.13; systemic leaves 0.112 0.242 0.198.
With AGGGUAACAA (pool 2.91) the assay gave inoculated region 1.11 0.761 1.03; leaf margin 0.0223 0 0; systemic leaves 0 0.0143 0.